Source: article PMC6675122, “N-terminal β-strand underpins biochemical specialization of an ATG8 isoform” (PLoS Biology, 2019)

Biological target: PexRD54 full-length protein (purified) (UniProt D0NBE6)
Assay: ITC
Settings: single site binding model

## ATG8-4 (potato), residues Thr4-Lys113, C-terminal 6xHis V32I
  Kd: 0.593 µM
